PubChem BioAssay AID504761 | Drosophila RNAi Screening Center, 2011

Assay: 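Genome-wide fly cell screen for genes dengue virus requires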 (primary screen)
Cells: D.Mel-2 cells from Drosophila
Reagents: long dsRNA against Drosophila genes
Treatment: infection with dengue virus type 2; dose and infection time not stated
Measurement: 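Per well on two replicate plates, imaging gave the percent of cells positive for viral envelope protein, ranked by infection, and a nuclear count of cells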
Scale: infection score: higher = more virus-infected cells
Rule for the call: 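Low infection ranks in the two replicates (chance level up to 0.065) followed by a retest with a 1.5-fold or larger significant decrease, p below 0.05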
Calls: active = confirmed: knock-down lowers infection; inactive = not picked or not confirmed
The screen tested about 22,000 reagents; shown is an unselected part of those with a known target gene and a result. Of all reagents, 116 (0.52%) got an active call. 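Calls depend on retest data that are not deposited; infection was ranked per plate without normalising between plates; the unit of the infection score is not given.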 Further read-outs or replicates are left out here. The record does not give: the amount of reagent, the time to read-out.

| infection score, replicate 1 | infection score, replicate 2 | outcome | gene knocked down | DRSC id |
| --- | --- | --- | --- | --- |
| 1.71 | 6.03 | inactive | dcma (GeneID 5740672) | DRSC00246 |
| 10.7 | 5.45 | inactive | dcma (GeneID 5740672) | DRSC00338 |
| 1.08 | 1.66 | inactive | RpL15 (GeneID 3354918) | DRSC20963 |
| 9.43 | 14.3 | inactive | Snx6 (GeneID 34126) | DRSC03081 |
| 9.15 | 5.27 | inactive | Snx6 (GeneID 34126) | DRSC29702 |
| – | 1.07 | inactive | Rpt6R (GeneID 43635) | DRSC15431 |
| 18.9 | 26.2 | inactive | Srp54 (GeneID 34312) | DRSC03442 |
| 1.82 | 1.12 | inactive | CG8952 (GeneID 32525) | DRSC20133 |
| 0.47 | 4.09 | inactive | CG32277 (GeneID 38393) | DRSC08196 |
| 7.04 | 8.24 | inactive | Ir7f (GeneID 7354418) | DRSC18012 |
| 9.78 | 26.3 | inactive | CG10734 (GeneID 36787) | DRSC05998 |
| 4.5 | 14.3 | inactive | Hr83 (GeneID 40783) | DRSC12521 |
| 7.66 | 7.88 | inactive | Hr83 (GeneID 40783) | DRSC25662 |
| 17.9 | 5.52 | inactive | Dlg5 (GeneID 34573) | DRSC02964 |
| 9.23 | 33.1 | inactive | Dlg5 (GeneID 34573) | DRSC27257 |
| 3.82 | 6.48 | inactive | NetB (GeneID 32400) | DRSC20262 |
| 3.8 | 2.82 | inactive | NetB (GeneID 32400) | DRSC26437 |
| – | 10.3 | inactive | TwdlO (GeneID 43204) | DRSC16043 |
| 3.6 | 3.03 | inactive | CNMa (GeneID 38242) | DRSC08405 |
| 5.68 | 10.5 | inactive | Ser (GeneID 43275) | DRSC16856 |
| 1.74 | 2.39 | inactive | Ser (GeneID 43275) | DRSC25494 |
| 3.44 | 5.97 | inactive | Col4a1 (GeneID 33727) | DRSC03291 |
| 3.82 | 2.09 | inactive | Cyp18a1 (GeneID 32858) | DRSC20235 |
| 10.6 | 7.5 | inactive | Cyp18a1 (GeneID 32858) | DRSC27063 |
| 2.68 | 4.15 | inactive | Gycalpha99B (GeneID 43493) | DRSC16690 |
| 1.6 | 1.96 | inactive | Gycalpha99B (GeneID 43493) | DRSC24782 |
| 1.88 | 0.61 | inactive | CG32855 (GeneID 318250) | DRSC13131 |
| 2.34 | 3.09 | inactive | CG33099 (GeneID 326254) | DRSC15774 |
| 19.9 | 11.7 | inactive | CG33099 (GeneID 326254) | DRSC29273 |
| 4.73 | 2.6 | inactive | flap (GeneID 37519) | DRSC03918 |
| 5.98 | 27.2 | inactive | flap (GeneID 37519) | DRSC04087 |
| – | 0.66 | inactive | CG30114 (GeneID 246465) | DRSC05707 |
| 10.3 | 3.31 | inactive | CG30114 (GeneID 246465) | DRSC25433 |
| 11.1 | 2.45 | inactive | CG1494 (GeneID 33102) | DRSC20509 |
| 5.12 | 1.06 | inactive | CG32302 (GeneID 38293) | DRSC08340 |
| 2.47 | 3.1 | inactive | CG7702 (GeneID 42242) | DRSC16293 |
| 26.1 | 4.39 | inactive | CG7702 (GeneID 42242) | DRSC27592 |
| – | 14.1 | inactive | meigo (GeneID 42510) | DRSC15877 |
| 2.49 | 1.4 | inactive | meigo (GeneID 42510) | DRSC25836 |
